Taken from: PubChem BioAssay AID624099 (ICCB-Longwood, 2012)

Purpose: 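Host factors E2 relies on to silence an HPV18 LCR reporter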 (primary screen)
Cell system: human C33A cervical carcinoma cells (HPV-negative) stably expressing BPV1 E2 and an HPV18 LCR luciferase reporter
Reagent: siRNA pool against human genes, 40 nM
Duration: 72 h
Read-out: 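HPV18 LCR reporter light per well, converted to plate-wise z-scores that exclude control wells, and averaged over triplicate plates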
Scale: mean z-score and z-score: higher = stronger reporter signal, weaker E2 silencing
Rule for the call: 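Mean z ≥ 2 together with z ≥ 2 in two or more of the three replicates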
Shown is a random part of about 21,000 deposited reagents. In the full data, 497 (2.4%) are marked active. 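Higher z means weaker E2 silencing; only reporter increases were scored, and knock-downs that hurt cell survival may mask genuine repressor factors.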 Reagent sequences are not shown.

What did the screen give for MOCS1?
mean z-score: 0.04; z-score, replicate A: -0.47; z-score, replicate B: 0.07; z-score, replicate C: 0.52; call: inactive

For NEURL3, what was measured?
mean z-score: -0.6; z-score, replicate A: -0.56; z-score, replicate B: -0.29; z-score, replicate C: -0.93; call: inactive

What did the screen give for IZUMO1?
mean z-score: 0.6; z-score, replicate A: 0.5; z-score, replicate B: 0.62; z-score, replicate C: 0.66; call: inactive

What is on record for YAE1?
mean z-score: 0.6; z-score, replicate A: 0.38; z-score, replicate B: 0.49; z-score, replicate C: 0.91; call: inactive

What is on record for BSPRY?
mean z-score: -1.06; z-score, replicate A: -1.28; z-score, replicate B: -1.06; z-score, replicate C: -0.84; call: inactive

With SPDYE12, what does the deposit list?
mean z-score: -0.25; z-score, replicate A: -0.66; z-score, replicate B: 0.48; z-score, replicate C: -0.59; call: inactive

With CYB5R1, what does the deposit list?
mean z-score: 0.14; z-score, replicate A: 0.22; z-score, replicate B: -0.15; z-score, replicate C: 0.36; call: inactive

What is on record for LOC401254 (retired record)?
mean z-score: 1.09; z-score, replicate A: 1.14; z-score, replicate B: 0.97; z-score, replicate C: 1.16; call: inactive

With SSBP4, how do the results read?
mean z-score: -2.18; z-score, replicate A: -2.52; z-score, replicate B: -1.94; z-score, replicate C: -2.07; call: inactive

What did the screen give for ZNF208?
mean z-score: -0.05; z-score, replicate A: 0.11; z-score, replicate B: -0.19; z-score, replicate C: -0.07; call: inactive

For PSMG3, what does the deposit list?
mean z-score: 0.6; z-score, replicate A: 0.39; z-score, replicate B: 0.77; z-score, replicate C: 0.63; call: inactive

With PTCHD1, what was measured?
mean z-score: -1.25; z-score, replicate A: -1.63; z-score, replicate B: -1.13; z-score, replicate C: -0.99; call: inactive

What did the screen give for FBLN7?
mean z-score: 2.4; z-score, replicate A: 2.28; z-score, replicate B: 2.57; z-score, replicate C: 2.35; call: active

Which result is listed for CCDC28B?
mean z-score: -0.34; z-score, replicate A: -0.44; z-score, replicate B: -0.25; z-score, replicate C: -0.32; call: inactive

Which result is listed for KLHL2?
mean z-score: 1.21; z-score, replicate A: 1.37; z-score, replicate B: 1.54; z-score, replicate C: 0.74; call: inactive

For TMBIM1, what was measured?
mean z-score: -0.67; z-score, replicate A: -0.23; z-score, replicate B: -0.91; z-score, replicate C: -0.88; call: inactive

With PPIAP72, what was measured?
mean z-score: 1.21; z-score, replicate A: 1.45; z-score, replicate B: 1.25; z-score, replicate C: 0.95; call: inactive

For SPRY2, what was measured?
mean z-score: 0.03; z-score, replicate A: 0.05; z-score, replicate B: -0.1; z-score, replicate C: 0.13; call: inactive

Quoted from the listing for reference:
FBLN7: mean z-score = 2.4; z-score, replicate A = 2.28; z-score, replicate B = 2.57; z-score, replicate C = 2.35; call = active
CCDC28B: mean z-score = -0.34; z-score, replicate A = -0.44; z-score, replicate B = -0.25; z-score, replicate C = -0.32; call = inactive
KLHL2: mean z-score = 1.21; z-score, replicate A = 1.37; z-score, replicate B = 1.54; z-score, replicate C = 0.74; call = inactive
TMBIM1: mean z-score = -0.67; z-score, replicate A = -0.23; z-score, replicate B = -0.91; z-score, replicate C = -0.88; call = inactive

Continued.
For MRGBP, what was measured?
mean z-score: -0.59; z-score, replicate A: -1.17; z-score, replicate B: -0.53; z-score, replicate C: -0.07; call: inactive

For SPATA31D4, what was measured?
mean z-score: -0.64; z-score, replicate A: -1.14; z-score, replicate B: -0.53; z-score, replicate C: -0.25; call: inactive

How did the screen score RNF5P1?
mean z-score: 0.36; z-score, replicate A: 0.61; z-score, replicate B: 0.33; z-score, replicate C: 0.14; call: inactive

For KRTAP5-1, how do the results read?
mean z-score: -0.31; z-score, replicate A: -0.75; z-score, replicate B: -0.13; z-score, replicate C: -0.06; call: inactive

For HPDL, what does the deposit list?
mean z-score: -1.5; z-score, replicate A: -1.64; z-score, replicate B: -1.41; z-score, replicate C: -1.45; call: inactive

For LINC01242, what was measured?
mean z-score: 0.83; z-score, replicate A: 0.81; z-score, replicate B: 0.73; z-score, replicate C: 0.97; call: inactive

With GOLGA2P5, what was measured?
mean z-score: -0.14; z-score, replicate A: 0.2; z-score, replicate B: -0.5; z-score, replicate C: -0.14; call: inactive

With PRRX1, how do the results read?
mean z-score: -1.36; z-score, replicate A: -1.69; z-score, replicate B: -1.29; z-score, replicate C: -1.1; call: inactive

For SACK1F, what does the deposit list?
mean z-score: 0.84; z-score, replicate A: 1.39; z-score, replicate B: 0.71; z-score, replicate C: 0.43; call: inactive
